Compound potency records, mixed from different reports. Data source: NIAID ChemDB in PubChem.

All rows: enzyme or target tests; agent: HIV-1; protein: Reverse transcriptase; measure: IC50

An empty or dashed field is not shown. ICn is the concentration giving n% inhibition. Lines come from different laboratories, so protocols vary. a–b is a range or a potency band.

| structure | strain | changes | read by | value |
|---|---|---|---|---|
| Nc1ccc(C(=O)N2CCN(C(=O)c3cc(O)c(O)c(O)c3)CC2)cc1 | BH10 |  | ELISA / nucleotide incorporation | >50 µM |
| C=CCNC(C)Cn1c(=S)[nH]c2ccccc21 |  |  | RT activity | >100 µg/mL |
| CCCS(=O)(=O)N1CCN(C(=O)c2cc(O)c(O)c(O)c2)CC1 | BH10 |  | ELISA / nucleotide incorporation | >50 µM |
| O=C(/C=C/c1ccc(O)c(O)c1)O[C@@H]1C[C@](OC(=O)/C=C/c2ccc(O)c(O)c2)(C(=O)O)C[C@@H](O)[C@H]1O | LAI |  |  | >97 µM |
| Cc1ccc(S(=O)(=O)N2CCC(NC(=O)c3cc(O)c(O)c(O)c3)CC2)cc1 | BH10 |  | ELISA / nucleotide incorporation | >295.2 µM |
| CC(O)C\C=C/C=C\C=C\CCCCCCc1cccc(O)c1O |  |  | nucleotide incorporation / radiometric | 78.1 µM |
| Cc1cn([C@H]2C=C[C@@H](COP(=O)(O)OP(=O)(O)OP(=O)(O)O)O2)c(=O)[nH]c1=O |  |  | radiometric | 10 µM |
| O=C(c1ccc(F)cc1)N1CCN(C(=O)c2cc(O)c(O)c(O)c2)CC1 | BH10 |  | ELISA / nucleotide incorporation | >50 µM |
| N#Cc1c(N)cccc1S(=O)(=O)c1cc(Cl)ccc1Cl |  |  |  | 5.3 µM |
| CCN1c2ncc(CCOc3ccc(CCC(=O)O)c4ccccc34)cc2C(=O)Nc2c(C)ccnc21 |  | RT-K103N Y181C | nucleotide incorporation / radiometric | >1 µM |
| O=C(Nc1cc(-c2ccc3c(c2)CCCC3)[nH]n1)c1ccno1 | NL4-3 | Y181C | RT activity / nucleotide incorporation / luminescence | 0.54 µM |
| CC(C)c1c(CO)cn(Cc2ccncc2)c1Sc1ccccc1 |  |  | RT activity | 0.8 µM |
| CCN1c2ncc(CCOc3cccc4c3CCCN4CC(=O)O)cc2C(=O)N(C)c2cccnc21 |  | RT-K103N Y181C | nucleotide incorporation / radiometric | >1 µM |
| Nc1ncnc2c1ncn2[C@@H]1O[C@H](COP(=O)(O)OP(=O)(O)OP(=O)(O)O)C[C@@H]1F |  | RT-F77L F116Y Q151M | nucleotide incorporation | 178 µM |
| COc1cc2c(ccc3c4cc(OC)c(OC)cc4c[n+](C)c23)cc1O |  |  |  | 22 µM |
| Cc1c(Sc2ccccc2)n(COCCO)c(=O)[nH]c1=O |  |  | nucleotide incorporation | 0.1 µM |
| O=C(Nc1cc(-c2ccc3c(c2)CCCC3)[nH]n1)c1ncccn1 | NL4-3 | K103N | RT activity / nucleotide incorporation / luminescence | 0.89 µM |
| O=C(c1cc(O)c(O)c(O)c1)N1CCN(S(=O)(=O)c2ccccc2)CC1 | BH10 |  | ELISA / nucleotide incorporation | >50 µM |
| Cc1cc(O)cc(S(=O)(=O)c2cccc(N)c2C#N)c1 |  |  |  | 0.04 µM |
| Cc1occc1C(=S)Nc1ccc(Cl)c(/C=N/OC(C)(C)C)c1 |  | RT-L100I |  | 25 µM |
| Cc1cnnn1[C@H]1C[C@H](n2ccc(=O)[nH]c2=O)O[C@@H]1COP(=O)(O)OP(=O)(O)OP(=O)(O)O | LAV |  | RT activity | >50 µM |
| CC(O)/C=C/C=C/C=C\CCCCCCCc1cccc(O)c1O |  |  | nucleotide incorporation / radiometric | 12.58 µM |
| O=C(CC1(O)C(=O)Nc2ccccc21)c1cccc(Br)c1 |  |  | RT activity / absorbance | >100 µM |
| C=CC1=C(C)c2cc3[n-]c(cc4[n-]c(cc5nc(cc1n2)C(C)=C5C=C)c(C)c4CCC(=O)O)c(CCC(=O)O)c3C.[Mg+2] |  |  | nucleotide incorporation / radiometric | <15 µM |
| CCN1c2ncc(CCOc3cccc4c3CCCN4C(=O)CC(=O)O)cc2C(=O)N(C)c2cccnc21 | WT |  | nucleotide incorporation / radiometric | <0.1 µM |
| Cc1cn([C@H]2C=C[C@@H](COP(=O)(O)OP(=O)(O)OP(=O)(O)O)O2)c(=O)[nH]c1=O |  | RT-N137A | nucleotide incorporation / radiometric | 0.18 µM |
| CC(C)=CCNC(C)Cn1c(=S)[nH]c2ccccc21 |  |  | RT activity | >100 µg/mL |
| Cc1c(Cc2c(Cl)cccc2Cl)nc(SCc2ccc(C#N)cc2)[nH]c1=O |  | RT-181I | nucleotide incorporation / radiometric | >400 µM |
| C[C@H](NC(=S)Nc1ccccn1)c1cccc2ccccc12 |  |  | nucleotide incorporation | >100 µM |
| Cc1c(Cc2c(Cl)cccc2Cl)nc(SCc2ccccc2)[nH]c1=O |  | RT-181I | nucleotide incorporation / radiometric | >400 µM |
| C/C=C/CSc1cc(NC(=S)c2ccsc2C)ccc1Cl |  | RT-M184V |  | 8 µM |
| Cc1c(Cc2c(Cl)cccc2Cl)nc(SCc2ccc3c(c2)C(=O)c2ccccc2C3=O)[nH]c1=O |  | RT-181I | nucleotide incorporation / radiometric | >400 µM |
| Cc1ccc(S(=O)(=O)N2CCN(C(=O)c3cc(O)c(O)c(O)c3)CC2)cc1 | BH10 |  | ELISA / nucleotide incorporation | >50 µM |
| Cc1cc(Cl)cc(S(=O)(=O)c2cccc(N)c2C#N)c1 |  |  |  | 0.003 µM |
| COc1cc2c(cc1OC)[C@H](c1cc(OC)c(OC)c(OC)c1)[C@@H](C)[C@@H](C)C2 |  |  | nucleotide incorporation | 2.11 µM |
| O=C(CC1(O)C(=O)Nc2ccccc21)c1ccccc1Cl |  |  | RT activity / absorbance | 69.68 µM |
| O=C(/C=C/c1ccc(O)c(O)c1)O[C@H]1[C@H](O)C[C@](O)(C(=O)O)C[C@H]1OC(=O)/C=C/c1ccc(O)c(O)c1 | IIIB |  |  | 9 µg/mL |
| O=C(Nc1nnc(-c2ccc3c(c2)CCCC3)o1)C1=COCCO1 | NL4-3 | G190A/Y181C/K103N | RT activity / nucleotide incorporation / luminescence | 9.1 µM |
| Cc1c(Cc2ccc(F)cc2)nc(SCc2ccc([N+](=O)[O-])cc2)[nH]c1=O |  | RT-181I | nucleotide incorporation / radiometric | >400 µM |
| Nc1ncnc2c1ncn2[C@H]1C[C@H](O)[C@]2(COP(=O)(O)OP(=O)(O)OP(=O)(O)O)C[C@H]12 |  |  | nucleotide incorporation / radiometric | 0.5 µM |
| O=c1c(O)c[nH]c2c(O)ccc(O)c12 |  |  | RT activity / nucleotide incorporation / radiometric | 2.38 µM |
| O=C(CC1(O)C(=O)Nc2ccc(Cl)cc21)c1ccccc1Cl |  |  | RT activity / absorbance | 0.76 µM |
| Cc1c(Cc2c(Cl)cccc2Cl)nc(SCc2ccc(O)cc2)[nH]c1=O |  | RT-K103N | nucleotide incorporation / radiometric | >400 µM |
| N#Cc1c(N)cccc1S(=O)(=O)c1ccccc1Cl |  |  |  | 7.3 µM |
| CCN1c2ncc(CCOc3ccc(CC(C)C(=O)O)c4ccccc34)cc2C(=O)Nc2c(C)cc(Cl)nc21 |  | RT-K103N Y181C | nucleotide incorporation / radiometric | 0.1–1 µM |
| Cc1c([C@@H](C)c2c(F)cccc2F)nc(SC2CCCC2)[nH]c1=O |  |  | nucleotide incorporation | 1 µM |
| CCN1c2ncc(CCOc3ccc(C(=O)O)c4c3CCCC4)cc2C(=O)N(C)c2cccnc21 |  | RT-K103N Y181C | nucleotide incorporation / radiometric | 0.1–1 µM |
| O=C(O)[C@H]1O[C@@H](Oc2cc3oc(-c4ccccc4)cc(=O)c3c(O)c2O)[C@H](O)[C@@H](O)[C@@H]1O | LAV |  |  | 22 µM |
| C[C@@H](NC(=S)Nc1ccc(Br)cn1)c1cccc2ccccc12 |  |  | nucleotide incorporation | 0.67 µM |
| O=C(CC1(O)C(=O)Nc2ccc(Cl)cc21)c1ccccc1 |  |  | RT activity / absorbance | 27.26 µM |
| NC(N)=NCCC[C@H](NC(=O)[C@H](CCCN=C(N)N)NC(=O)[C@@H](N)CCCN=C(N)N)C(=O)O |  |  | ELISA | 24 µM |
| O=C(/C=C/c1ncccn1)Nc1cc(-c2ccc3c(c2)CCCC3)[nH]n1 | NL4-3 | Y181C | RT activity / nucleotide incorporation / luminescence | 0.45 µM |
| O=C(CC1(O)C(=O)Nc2ccc(Cl)cc21)c1ccc(Cl)c(Cl)c1 |  |  | RT activity / absorbance | 68.86 µM |
| COc1cc(CSc2nc(Cc3c(F)cccc3F)c(C)c(=O)[nH]2)cc(OC)c1 |  | RT-K103N | nucleotide incorporation / radiometric | >400 µM |
| CSCC1C(=O)SCC(NC(=O)c2nc3ccccc3cc2O)C(=O)NCC(=O)N(C)C2CSSCC(C(=O)N1C)N(C)C(=O)CNC(=O)C(NC(=O)c1nc3ccccc3cc1O)CSC(=O)C(CSC)N(C)C2=O | IIIB |  |  | 900 µM |
| CCOc1ccc(CSc2nc(Cc3c(Cl)cccc3Cl)c(C)c(=O)[nH]2)cc1 |  | RT-181I | nucleotide incorporation / radiometric | >400 µM |
| Cc1ccc(NC(=S)N[C@H](C)c2cccc3ccccc23)nc1 |  |  | nucleotide incorporation | 0.45 µM |
| Cc1cccc(C(=O)CC2(O)C(=O)Nc3ccc(Br)cc32)c1 |  |  | RT activity / absorbance | 1.38 µM |
| COc1ccc(CSc2nc(Cc3ccc(F)cc3)c(C)c(=O)[nH]2)cc1 |  | RT-181I | nucleotide incorporation / radiometric | >400 µM |
| N#Cc1c(N)cccc1S(=O)(=O)c1cccc(C(F)(F)F)c1 |  |  |  | >18 µM |
| Cc1c(C(=O)N(C)Cc2cccnc2)[nH]c(C(N)=O)c1S(=O)(=O)c1ccccc1 | NL4-3 | WT | RT activity / nucleotide incorporation / luminescence | 0.052 µM |
| CCOCn1c(Cc2cc(C)cc(C)c2)c(CC)c(=O)[nH]c1=O | IIIB |  |  | 0.36 µM |
| Cc1ccc(NC(=S)N[C@@H](C)c2cccc3ccccc23)nc1 |  |  | nucleotide incorporation | >100 µM |
| CCN1c2ncc(CCOc3ccc(C(=O)O)c4ccccc34)cc2C(=O)Nc2c(C)cc(Cl)nc21 |  | RT-Y188L | nucleotide incorporation / radiometric | >1 µM |
| C[C@H](NC(=S)Nc1ccc(Cl)cn1)c1cccc2ccccc12 |  |  | nucleotide incorporation | >100 µM |
| O=C(CC1(O)C(=O)Nc2ccc(Br)cc21)c1ccccc1 |  |  | RT activity / absorbance | 5.22 µM |
| Cc1ccc(-c2c(SCC(=O)Nc3ccc(-c4ccc(CC(=O)O)cc4)cc3Cl)cnn2C)c(Cl)c1 |  | K103N + Y181C | scintillation proximity / radiometric | 6.48 µM |
| N#Cc1cccc(S(=O)(=O)c2cccc(N)c2C#N)c1 |  |  |  | 6 µM |
| CC(C)=CCN1Cc2cccc3[nH]c(=O)n(c23)CC1C |  |  | nucleotide incorporation | 2 µM |
| CCN1c2ncc(CCOc3ccc(C(=O)O)c4ccccc34)cc2C(=O)N(C)c2cccnc21 |  | RT-Y188L | nucleotide incorporation / radiometric | >1 µM |
| Cc1csc(NC(=S)N[C@H](C)c2cccc3ccccc23)n1 |  |  | nucleotide incorporation | 1.17 µM |
| Fc1cccc(CCNC(=S)Nc2ccc(C(F)(F)F)cn2)c1 |  |  | nucleotide incorporation / scintillation proximity / radiometric | 0.7 µM |